Reference: PubChem BioAssay AID686971 (National Center for Advancing Translational Sciences (NCATS), 2013)
This is a selection; strong and weak results do not stand in their true shares. Records with an inconclusive call do not appear. Calls of active or inactive are those of the source. Calls follow the shape of the dose curve; as a rule, active = well fitted cell-killing curve with a large enough effect; inconclusive = small, poorly fitted or top-dose-only effect, or effect the other way, or another doubt; inactive = no such curve, though single readings can be large or run the other way.

assay: qHTS for induction of synthetic lethality in tumor cells producing 2HG: qHTS for the HT-1080-IDH1KD cell line; details: HT-1080 IDH1 knockdown viability, ATP luminescence, 48 h
Potency is read from the fitted curve at half-maximal effect.

Row | SMILES | Potency
1 | CC(=O)OCC12CC(OC(=O)CC(C)C)C(C)=CC1OC1C(O)C(OC(C)=O)C2(C)C12CO2 (stereo unspecified) | active: 184 nM
